From PMC4207412, “Secondary Structural Preferences of Some Antibacterial Cyclooctapeptides in the Presence of Calcium(II)” (International Journal of Medicinal Chemistry, 2012) come the findings set out here.

Square brackets hold non-standard residues; d marks the D form. Peptide text beside a SMILES is read from it.

Series [1] is described as follows: Isothermal titration calorimetry of Ca2+ binding in micellar DPC (10 mM). Particulars: ITC, 30°C, 10% aqueous acetonitrile containing 10 mM micellar DPC, mean of three experiments ± standard error mean; for Change in enthalpy ΔH: one-site model; for Change in Gibbs free energy ΔG: ΔG = −RT ln K b; for Change in entropy ΔS: ΔS = (ΔH − ΔG)/T. As to the method: (§1) Microcalorimetric titrations of peptides with metal ions were conducted by isothermal titration microcalorimetry (ITC) using a Microcal VP-ITC Instrument (Northampton, MA, USA). Experiments were carried out at 30°C in 10% acetonitrile in water. The peptide concentration was 0.15 or 0.30 mM (1.34 mL sample cell), and the metal ion [Ca(ClO4)2] concentration was varied from 9 to 15 mM in the syringe. Automated titrations were conducted until saturation, up to a Ca^2+/peptide mole ratio of about 12 : 1. Heats of dilution and mixing for each experiment were measured by titrating calcium(II) solution into 10% acetonitrile solution. The effective heat of each peptide and calcium(II) interaction was corrected for dilution and mixing effects by subtracting the enthalpy change derived from the titration of calcium(II) solution into the 10% acetonitrile solution without the peptide. In a similar way, ITC experiments were carried out at 30°C in 10% aqueous acetonitrile containing 10 mM DPC. These heats of bimolecular interactions were obtained by integrating the peak following each injection of calcium(II). The binding isotherms were derived from the raw ITC data following correction for dilution and mixing effects. These isotherms were fitted using the one-site model by a nonlinear least square analysis with Microcal Origin 7.0 software (Microcal Software, Inc., Northampton, MA, USA) to determine the molar enthalpy change for binding, ΔH, and the corresponding binding constant, K b. From these values, the thermodynamic characterization of the interaction at 30°C was determined from the fundamental equations of thermodynamics, ΔG = −RT ln K b and ΔS = (ΔH − ΔG)/T.
In order to mimic the hydrophobic environment of the bacterial membrane that antimicrobial peptides commonly target, the interactions of these cyclopeptides with calcium(II) were also conducted in the presence of micellar dodecylphosphocholine (DPC). […] However, their association is compensated by an increase in entropy (ΔS values range from ca. 42.7 to 66.5 JK^−1 mol^−1). This entropy/enthalpy compensation could be attributed to a greater degree of dehydration of the hydration spheres around the cyclopeptide molecules and calcium ions following complex formation in the hydrophobic micellar DPC environment. However, there is no significant trend in the enthalpy or entropy changes following calcium(II) binding in the presence of micellar DPC.

Series [2] is described as follows: Isothermal titration calorimetry of Ca2+ binding in 10% acetonitrile in water. Particulars: ITC, 30°C, no DPC, mean of three experiments ± standard error mean; for Change in enthalpy ΔH: one-site model; for Change in Gibbs free energy ΔG: ΔG = −RT ln K b; for Change in entropy ΔS: ΔS = (ΔH − ΔG)/T. The procedure:
as §1
A general note: Isothermal titration calorimetry measures the heat released or taken up as one component is titrated into another.

As to `CC(C)C[C@@H]1NC(=O)[C@@H](CC(C)C)NC(=O)[C@H](CCC(=O)O)NC(=O)[C@@H](CCCCN)NC(=O)[C@H](CCCCN)NC(=O)[C@@H](CCCCN)NC(=O)[C@H](Cc2c[nH]cn2)NC(=O)[C@@H](CC(C)C)NC1=O` [COP 5] (cyclo(E[dL]L[dL]H[dK]K[dK])), in series [1], the “Change in enthalpy ΔH” value was -0.502 ± 0.024 kcal/mol, the “Change in Gibbs free energy ΔG” value was -5.09 ± 0.096 kcal/mol and the “Change in entropy ΔS” value came to 63.6 ± 2.1 J K^−1 mol^−1. In series [2], the “Change in enthalpy ΔH” value is -0.598 ± 0.311 kcal/mol, the “Change in Gibbs free energy ΔG” value is -5.09 ± 0.19 kcal/mol and the “Change in entropy ΔS” value is on record as 62.3 ± 6.3 J K^−1 mol^−1.
As to `CC(C)C[C@@H]1NC(=O)[C@@H](CCCCN)NC(=O)[C@H](CCCCN)NC(=O)[C@@H](CCCCN)NC(=O)[C@H](CCCCN)NC(=O)[C@@H](CC(C)C)NC(=O)[C@H](CC(C)C)NC(=O)[C@@H](CC(C)C)NC1=O` [COP 1] (cyclo(K[dK]K[dK]L[dL]L[dL])), in series [2], the “Change in enthalpy ΔH” value is -0.12 ± 0.024 kcal/mol, the “Change in Gibbs free energy ΔG” value is -4.9 ± 0.096 kcal/mol and the “Change in entropy ΔS” value turned out to be 65.7 ± 1.7 J K^−1 mol^−1.
Taken in the same sequence, the figures for `CC(C)C[C@@H]1NC(=O)[C@@H](CC(C)C)NC(=O)[C@H](CC(C)C)NC(=O)[C@@H](CCCCN)NC(=O)[C@H](CCCCN)NC(=O)[C@@H](CCCCN)NC(=O)[C@H](CCCCN)NC(=O)[C@@H](Cc2c[nH]c3ccccc23)NC1=O` [COP 2] (cyclo(K[dK]K[dK]L[dL]L[dW])) were -0.14 ± 0.0096 kcal/mol, -5 ± 0.19 kcal/mol and 67.8 ± 3.8 J K^−1 mol^−1.
As for `CC(C)C[C@@H]1NC(=O)[C@@H](CC(C)C)NC(=O)[C@H](CC(C)C)NC(=O)[C@@H](CC(C)C)NC(=O)[C@H](CCC(=O)O)NC(=O)[C@@H](CCCCN)NC(=O)[C@H](CCCCN)NC(=O)[C@@H](CCCCN)NC1=O` [COP 7] (cyclo(E[dL]L[dL]L[dK]K[dK])), in series [1], the “Change in enthalpy ΔH” value was -0.19 ± 0.096 kcal/mol and the “Change in entropy ΔS” value amounted to 42.7 ± 7.1 J K^−1 mol^−1. Further, in series [2], the “Change in enthalpy ΔH” value is -0.789 ± 0.19 kcal/mol, the “Change in Gibbs free energy ΔG” value is -5.4 ± 0.096 kcal/mol and the “Change in entropy ΔS” value worked out at 63.6 ± 3.8 J K^−1 mol^−1.
With `CC(C)C[C@@H]1NC(=O)[C@@H](CC(C)C)NC(=O)[C@H](CCC(=O)O)NC(=O)[C@@H](CCCCN)NC(=O)[C@H](Cc2c[nH]cn2)NC(=O)[C@@H](CCCCN)NC(=O)[C@H](Cc2c[nH]cn2)NC(=O)[C@@H](CC(C)C)NC1=O` [COP 8] (cyclo(E[dL]L[dL]H[dK]H[dK])), in series [1], the “Change in enthalpy ΔH” value is -0.19 ± 0.024 kcal/mol, the “Change in Gibbs free energy ΔG” value was -5.09 ± 0.0096 kcal/mol and the “Change in entropy ΔS” value is 66.5 ± 0.4 J K^−1 mol^−1. Also, in series [2], the “Change in enthalpy ΔH” value was -0.693 ± 0.19 kcal/mol, the “Change in Gibbs free energy ΔG” value was -5.09 ± 0.096 kcal/mol and the “Change in entropy ΔS” value came out at 60.7 ± 0.8 J K^−1 mol^−1.
Regarding `CC(C)C[C@@H]1NC(=O)[C@@H](CC(C)C)NC(=O)[C@H](CCC(=O)O)NC(=O)[C@@H](CCCCN)NC(=O)[C@H](CCCCN)NC(=O)[C@@H](CCCCN)NC(=O)[C@H](CS)NC(=O)[C@@H](CC(C)C)NC1=O` [COP 6] (cyclo(C[dK]K[dK]E[dL]L[dL])), in series [1], the “Change in enthalpy ΔH” value was -1.2 ± 0.502 kcal/mol, the “Change in Gibbs free energy ΔG” value was -5.09 ± 0.096 kcal/mol and the “Change in entropy ΔS” value is given as 54.4 ± 7.9 J K^−1 mol^−1. In addition, in series [2], the “Change in enthalpy ΔH” value is -2.39 ± 1.6 kcal/mol, the “Change in Gibbs free energy ΔG” value was -5.21 ± 0.19 kcal/mol and the “Change in entropy ΔS” value is given as 38.5 ± 23.8 J K^−1 mol^−1.
Consider `CC(C)C[C@@H]1NC(=O)[C@@H](CC(C)C)NC(=O)[C@H](CCCCN)NC(=O)[C@@H](CCCCN)NC(=O)[C@H](CCCCN)NC(=O)[C@@H](CCCCN)NC(=O)[C@H](CS)NC(=O)[C@@H](CC(C)C)NC1=O` [COP 3] (cyclo(C[dK]K[dK]K[dL]L[dL])), for which, in series [1], the “Change in enthalpy ΔH” value was -0.19 ± 0.0096 kcal/mol, the “Change in Gibbs free energy ΔG” value is -4.9 ± 0.048 kcal/mol and the “Change in entropy ΔS” value worked out at 64.0 ± 0.8 J K^−1 mol^−1. In addition, in series [2], the “Change in enthalpy ΔH” value was -0.693 ± 0.406 kcal/mol, the “Change in Gibbs free energy ΔG” value is -5.31 ± 0.311 kcal/mol and the “Change in entropy ΔS” value is reported as 63.6 ± 5.4 J K^−1 mol^−1.
As for `CC(C)C[C@@H]1NC(=O)[C@@H](CC(C)C)NC(=O)[C@H](CCC(=O)O)NC(=O)[C@@H](CCCCN)NC(=O)[C@H](CCCCN)NC(=O)[C@@H](CCCCN)NC(=O)[C@H](CCC(=O)O)NC(=O)[C@@H](CC(C)C)NC1=O` [COP 9] (cyclo(E[dK]K[dK]E[dL]L[dL])), in series [1], the “Change in enthalpy ΔH” value was -0.406 ± 0.048 kcal/mol, the “Change in Gibbs free energy ΔG” value is -5 ± 0.0096 kcal/mol and the “Change in entropy ΔS” value was found to be 63.6 ± 0.4 J K^−1 mol^−1. Also, in series [2], the “Change in enthalpy ΔH” value was -0.789 ± 0.096 kcal/mol, the “Change in Gibbs free energy ΔG” value was -5.09 ± 0.19 kcal/mol and the “Change in entropy ΔS” value amounted to 59.4 ± 2.1 J K^−1 mol^−1.
